Data source: PubChem BioAssay AID504761 (Drosophila RNAi Screening Center, 2011)

Test: 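Insect host genes that dengue virus relies on to spread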 (primary screen)
System: D.Mel-2 cells from Drosophila
Knock-down reagent: long dsRNA against Drosophila genes
Conditions: infection with dengue virus type 2; dose and infection time not stated
Read-out: 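Cells stained for dengue envelope protein and imaged; percent of infected cells per well on duplicate plates, ranked by infection, with stained nuclei counted for cell number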
Direction: infection score: higher = more virus-infected cells; cell count: higher = more cells in the well
Hit rule: 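Very low infection ranking in both replicate wells (chance probability at most 0.065), then a retest showing infection dropped 1.5-fold or more at p below 0.05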
Calls: active = confirmed: knock-down lowers infection; inactive = not picked or not confirmed
The screen tested about 22,000 reagents; this is an unselected part of those with a known target gene and a result. In the full data, 116 (0.52%) were called active. 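Calls depend on retest data that are not deposited; infection was ranked per plate without normalising between plates; the unit of the infection score is not given.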 Raw values vary from plate to plate and are shown uncorrected. Names joined by + are all predicted targets of the reagent. No sequences are given here. The record does not give: the amount of reagent, the time to read-out.

| Target gene | dsRNA | infection score, replicate 1 | infection score, replicate 2 | cell count, replicate 1 | cell count, replicate 2 | call |
| --- | --- | --- | --- | --- | --- | --- |
| p120ctn (p120 catenin) | DRSC07753 | 3.69 | 3.43 | 6554 | 6069 | inactive |
| CG12448 | DRSC01967 | 4.59 | 6.89 | 6423 | 6244 | inactive |
| Atg10 + CG18853 + CG12822 | DRSC20757 | 1.93 | 2.05 | 5809 | 5845 | inactive |
| CG32201 | DRSC22452 | 3.01 | 15 | 6170 | 4481 | inactive |
| CG4830 | DRSC15657 | 3.35 | 4.34 | 6517 | 6662 | inactive |
| lectin-30A | DRSC02560 | 1.52 | 3.82 | 6571 | 6414 | inactive |
| Su(var)205 (Suppressor of variegation 205) | DRSC03446 | 3.31 | 7.78 | 6105 | 5604 | inactive |
| plu (plutonium) | DRSC07665 | 2.32 | 1.73 | 6159 | 5845 | inactive |
| CG15719 | DRSC19685 | 3.03 | 10.2 | 5937 | 5920 | inactive |
| elgi (early girl) | DRSC10242 | 24 | 7.24 | 5323 | 6338 | inactive |
| elgi (early girl) | DRSC29665 | – | 8.56 | 399 | 5584 | inactive |
| CG5909 | DRSC15914 | 2.22 | 5.14 | 6390 | 6387 | inactive |
| CG5909 | DRSC27750 | 18.5 | 34.5 | 4546 | 5882 | inactive |
| CG9920 | DRSC16578 | 2.12 | 0.73 | 6272 | 6423 | inactive |
| CG33339 | DRSC22917 | 3.48 | 6.49 | 6519 | 7098 | inactive |
| CG33339 | DRSC29651 | 30.6 | – | 5511 | 406 | inactive |
| CG12851 | DRSC04131 | 6.87 | 13.1 | 990 | 5603 | inactive |
| CG9062 | DRSC07327 | 2.94 | 14.5 | 815 | 3681 | inactive |
| CG9062 | DRSC27558 | 11.6 | 8.92 | 6052 | 3373 | inactive |
| Tet (Ten-Eleven Translocation (TET) family protein) | DRSC08550 | 10.7 | 12.7 | 6362 | 3705 | inactive |
| Tet (Ten-Eleven Translocation (TET) family protein) | DRSC28377 | 14.3 | 11.4 | 1941 | 6151 | inactive |
| PIG-Q (Phosphatidylinositol glycan anchor biosynthesis class Q) | DRSC19138 | 3.1 | 1.38 | 6056 | 6068 | inactive |

4 entries from above, ordered by “cell count, replicate 1”, lowest first.
| Target gene | dsRNA | infection score, replicate 1 | infection score, replicate 2 | cell count, replicate 1 | cell count, replicate 2 | call |
| --- | --- | --- | --- | --- | --- | --- |
| Su(var)205 (Suppressor of variegation 205) | DRSC03446 | 3.31 | 7.78 | 6105 | 5604 | inactive |
| plu (plutonium) | DRSC07665 | 2.32 | 1.73 | 6159 | 5845 | inactive |
| CG4830 | DRSC15657 | 3.35 | 4.34 | 6517 | 6662 | inactive |
| lectin-30A | DRSC02560 | 1.52 | 3.82 | 6571 | 6414 | inactive |

Additional records follow:
| Target gene | dsRNA | infection score, replicate 1 | infection score, replicate 2 | cell count, replicate 1 | cell count, replicate 2 | call |
| --- | --- | --- | --- | --- | --- | --- |
| a5 (antennal protein 5) | DRSC00798 | 1.34 | 6.59 | 6469 | 6953 | inactive |
| Cdc16 (Cell division cycle 16) | DRSC16920 | 2.47 | 2.69 | 2515 | 1080 | inactive |
| AnxB11 (Annexin B11) | DRSC19331 | 3.34 | 5.07 | 6624 | 6825 | inactive |
| AnxB11 (Annexin B11) | DRSC26479 | 3.84 | 0.43 | 5961 | 6059 | inactive |
| CG10680 | DRSC02093 | 11.2 | 2.07 | 5809 | 6467 | inactive |
| wmd (wing morphogenesis defect) | DRSC04436 | 2.62 | 5.86 | 7357 | 6126 | inactive |
| wmd (wing morphogenesis defect) | DRSC29254 | 12.1 | 12.1 | 4316 | 730 | inactive |
| Sou (Souji) | DRSC04356 | 12.4 | 14.6 | 6252 | 5691 | inactive |
| Nepl9 (Neprilysin-like 9) | DRSC02255 | 7.71 | 3.73 | 5722 | 6413 | inactive |
| TotA (Turandot A) | DRSC13448 | 3.68 | 2.65 | 6220 | 5729 | inactive |
| Pig1 (Pre-intermoult gene 1) | DRSC24991 | 15.7 | 0.92 | 6508 | 6527 | inactive |
| CG14591 | DRSC04868 | 11.1 | 5.99 | 6308 | 6614 | inactive |
| dind (diamond) | DRSC16294 | 2.66 | 3.45 | 6325 | 5978 | inactive |
| dind (diamond) | DRSC27615 | 5.59 | 9.35 | 6624 | 6996 | inactive |
| CG14439 | DRSC17931 | 3.65 | 4.69 | 6843 | 6979 | inactive |
| CG6296 | DRSC16013 | 2.3 | 13.5 | 6726 | 6936 | inactive |
| CG7519 | DRSC11834 | 14.8 | 6.36 | 5778 | 6082 | inactive |
